# Data as given in PubChem BioAssay AID624099 (ICCB-Longwood, 2012)
# Aim: 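Host factors E2 relies on to silence an HPV18 LCR reporter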 (primary screen)
# Cell system: human C33A cervical carcinoma cells (HPV-negative) stably expressing BPV1 E2 and an HPV18 LCR luciferase reporter
# Reagents: siRNA pool against human genes, 40 nM
# Timing: 72 h
# Read-out: 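Per-well luciferase luminescence, z-scored on each plate against the plate mean and SD with control wells left out, then averaged across three replicate plates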
# Scale: mean z-score and z-score: higher = stronger reporter signal, weaker E2 silencing
# Active means: 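Hit if mean z-score reaches 2 and two or more of three replicate z-scores also reach 2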
# Here is one part, drawn at random, of about 21,000 reagents. In the full data, 497 (2.4%) got an active call. 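Higher z means weaker E2 silencing; only reporter increases were scored, and knock-downs that hurt cell survival may mask genuine repressor factors.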 Reagent sequences are not shown.
The first 2 records as a preview:
mean z-score,"z-score, replicate A","z-score, replicate B","z-score, replicate C",outcome,gene
1.45,1.61,1.11,1.64,inactive,JMY
1.17,1,1.32,1.19,inactive,PMS2P3

The list itself, from the first entry:
mean z-score,"z-score, replicate A","z-score, replicate B","z-score, replicate C",outcome,gene
1.45,1.61,1.11,1.64,inactive,JMY
1.17,1,1.32,1.19,inactive,PMS2P3
-1.02,-1.41,-0.76,-0.9,inactive,LOC388790 (retired record)
0.35,0.58,0.25,0.22,inactive,SLC25A41
-1.09,-1.18,-1.31,-0.78,inactive,TWNK
0.33,0.28,0.54,0.17,inactive,D2HGDH
-0.62,-0.28,-0.84,-0.74,inactive,ZNF321P
0.95,1.27,0.94,0.63,inactive,NFKBIE
-0.99,-1,-0.89,-1.09,inactive,PXMP2
0.2,0.16,0.32,0.12,inactive,LINC00208
1,0.98,1.25,0.78,inactive,HORMAD1
-0.97,-0.81,-1.04,-1.06,inactive,GPRC5A
-0.58,-0.61,-0.47,-0.66,inactive,PDE11A
0.29,0.28,0.46,0.13,inactive,CENPB
-0.22,-0.5,-0.45,0.3,inactive,SLITRK4
-0.46,-0.25,-0.37,-0.75,inactive,TMEM169
-1,-0.82,-1.23,-0.96,inactive,ZC3H11B
-0.57,-0.34,-0.52,-0.87,inactive,RO60
-0.76,-0.87,-0.61,-0.79,inactive,CHRDL1
0.05,0.27,0.08,-0.19,inactive,PPP2CB
1.77,1.97,1.73,1.59,inactive,DGKA
-0.22,-0.21,-0.36,-0.1,inactive,LILRB5
0.99,1.17,0.85,0.96,inactive,NIBAN2
